Molecular target: biotinylated influenza hemagglutinin (HA) from H1N1 A/California/07/2009 (Influenza A virus A/California/07/2009 …, UniProt C3W5X2, strain, biotinylated)
Experiment: BLI
Settings: both partners purified

B1: 5J8 Fab VL D50Y (Fab, V domains shown)
VH: EVQLVESGPGLVKPSDILSLTCAVSGYSISSNYYWGWIRQPPGKGLEWIGSIYHSGSTYYKPSLESRLGISVDTSKNQFSLKLSFVSAADTAVYYCARHVRSGYPDTAYYFDKWGQGTLVTVSS
VL: SYVLTQPPSVSVAPGETARISCGGNNIGTKVLHWYQQTPGQAPVLVVYYDSDRPSGIPERFSGSNSGNTATLTISRVEVGDEADYYCQVWDISTDQAVFGGGTKLTVL
binding result: no binding (tested: 33 nM, 100 nM, and 300 nM)

Reference: publication PMC10636607 (Cell Reports, 2023)
